For the data set, the system named is HIV-1. Description: Anti-HIV assay with T4 lymphocytes (CEM-SS cell line), XTT, protection against HIV cytopathic effects. The format is cell-based. From the text: The ester conjugates were subjected to standard in vitro anti-HIV bioassays [see: with T4 lymphocytes (CEM-SS cell line) according to the standard assays described, for example in Bourinbaiar AS, Lee-Huang S. Contraception 1995; 51:319-22 and http://www.iaen.org/files.cgi/7014_Bourinbaiar.pdf. Drug efficacy (EC50) was obtained by adding HIV and AZT conjugate to the cell to measure protection of the drug against HIV-induced celldeath. The cytotoxicity (IC50) data was obtained from adding only the conjugate to the cell to measure cell death caused by the agent. The therapeutic index (TI) is the ratio IC50/EC50. […] These two active agents appear to have less cytotoxicity and weaker anti-HIV potency than AZT. […] This intriguing profile of conjugate (4) prompted further evaluations of its growth inhibition in comparison to (5) and (6).
The anti-HIV assay was carried out with T4 lymphocytes (CEM-SS cell line) through the following standard procedure. Agent is dissolved in dimethyl sulfoxide and diluted 1:100 in cell culture medium before preparing serial half-log 10 dilutions. […] Individual wells are analyzed spectrophotometrically to quantitate formazan production, and in addition are viewed microscopically for detection of viable cells and confirmation of protective activity. […]

For `Cc1cn(C2C[C@H](N=[N+]=[N-])C(COC(=O)[C@@H]3OC(C)(C)O[C@@]34CCC3C5CCC6=CC(=O)C=CC6(C)C5C(O)CC34C)O2)c(=O)[nH]c1=O` (stereo partly drawn) [compound 6, 3′-Azido-3′-deoxythymidine-5′-[11β-hydroxy-17,20α-isopropylidenedioxy-3-oxo-1,4-pregnadiene-21-oate]], the “TI (IC50/EC50), therapeutic index” value was determined as 184. In the case of `COC(OC)C(=O)[C@H]1[C@H](C(=O)OC[C@H]2O[C@@H](n3cc(C)c(=O)[nH]c3=O)C[C@@H]2N=[N+]=[N-])C[C@H]2[C@@H]3CCC4=CC(=O)C=C[C@]4(C)[C@H]3[C@@H](O)C[C@@]21C` [compound 5, 3′-Azido-3′-deoxythymidine-5′-[21,21-dimethoxy-3,20-dioxo-11β-hydroxy-1,4-pregnadiene-16α-carboxylate]] it was 370.

Values taken from patent publication US20050267051A1, “Antineoplastic and anti-HIV conjugates of steroid acid and nucleosides” (priority 2003, published 2005).
